Compound potency records, mixed from different reports. Data source: NIAID ChemDB in PubChem.

Common to all: tests on isolated targets

Two numbers with a dash give a range or band. ICn: concentration for n% inhibition. Fold resistance has wild type as its base. Percent inhibition refers to the dose given; in toxicity tests it is the harm to the cells. Lines come from different laboratories, so protocols vary. Blank or dashed fields: not listed here.

compound,method,strain,read-out,target,mutations,dose,agent,result
COc1ccc(-c2ccc(C=C3SC(=S)N(c4ccc(C(=O)O)cc4)C3=O)o2)cc1OC,,,IC50,NS5 polymerase,,,Bovine viral diarrhea virus,≤1 µM
O=C(O)c1cc2ncc(-c3ccc4occc4c3)c(C3CCCCC3)n2n1,,,IC50,RNA-dependent RNA polymerase,,,Hepatitis C virus,>10 µM
CCc1ccccc1-c1nc2nc(N)nc(N)c2nc1-c1ccccc1CC,,TYPE 2,IC50,Dihydrofolate reductase,,,Cryptosporidium parvum,>10 µM
CCOC(=O)c1cc(-c2ccc(C=C3SC(=S)N(CC(=O)O)C3=O)o2)ccc1Cl,,,IC50,NS5 polymerase,,,Bovine viral diarrhea virus,≤1 µM
CC(C)CC(=O)c1cn2ccn(Cc3ccc(F)cc3)c(=O)c2c(O)c1=O,ELISA,,IC50,Integrase,,,HIV-1,0.01–0.1 µM
Nc1nc(N)c2c(CNc3cc(Cl)c(-n4cccc4)c(Cl)c3)c(Br)sc2n1,,TYPE 1,IC50,Dihydrofolate reductase,,,Cryptosporidium parvum,>10 µM
Clc1cccc(N2CCN(c3cncc(-c4ccsc4)n3)CC2)c1,,,inhibition,UL97 kinase,,10 µM,Cytomegalovirus,>15%
CCc1sc2nc(N)nc(N)c2c1-c1ccc(Cl)cc1,,TYPE 2,IC50,Dihydrofolate reductase,,,Cryptosporidium parvum,>10 µM
OCc1cccc(-c2cncc(N3CCN(c4ccncc4)CC3)n2)c1,,,IC50,UL97 kinase,,,Cytomegalovirus,<100 µM
Cc1ccccc1C(=O)Nc1cc(Cc2cccc(C#N)c2)sc1C(=O)O,,,IC50,NS3 ATPase,,,Hepatitis C virus,>20 µM
CC(C)(C)C(O)c1cc(=O)c(O)c2n1CCN(Cc1ccc(Cl)c(Cl)c1)C2=O,ELISA,,IC50,Integrase,,,HIV-1,0.01–0.1 µM
CNC(=O)c1cc2nc(-c3ccc(Cl)cc3)cc(-c3ccc(Oc4ccccc4)cc3)n2n1,,,IC50,RNA-dependent RNA polymerase,,,Hepatitis C virus,>10 µM
COc1cccc2nc(N)nc(N)c12,,TYPE 1,IC50,Dihydrofolate reductase,,,Cryptosporidium parvum,0.56 µM
O=C(O)c1cccc(N2C(=O)C(=Cc3ccc(-c4cc(C(F)(F)F)ccc4Cl)o3)SC2=S)c1,,,IC50,NS5 polymerase,,,Bovine viral diarrhea virus,≤1 µM
O=C(O)c1sc(-c2ccccc2)cc1NS(=O)(=O)c1ccccc1CCl,,,IC50,NS3 ATPase,,,Hepatitis C virus,5–20 µM
CNC(=O)c1cnn2c(C3CCCCC3)c(-c3ccc(OCc4ccccc4)cc3)cnc12,,,IC50,RNA-dependent RNA polymerase,,,Hepatitis C virus,>10 µM
O=C1NC(=S)SC1=Cc1ccc(-c2ccc(Cl)c(Cl)c2)s1,,,IC50,NS5 polymerase,,,Bovine viral diarrhea virus,≤1 µM
COC(=O)c1cc(F)ccc1CN1CCn2cc(-c3nccs3)c(=O)c(O)c2C1=O,ELISA,,IC50,Integrase,,,HIV-1,0.1–1 µM
O=C(N[C@H](C(=O)O)c1ccc(O)cc1)c1cnn2c(C3CCCCC3)c(-c3ccc(Cl)cc3)cnc12,,,IC50,RNA-dependent RNA polymerase,,,Hepatitis C virus,<1 µM
Nc1nc2c(ncn2[C@H]2CO[C@@H](COP(=O)(O)OP(=O)(O)OP(=O)(O)O)O2)c(=O)[nH]1,radiometric,,fold resistance,Reverse transcriptase,RT-K65R Q151M,,HIV,15
CCCC(C)NC(=O)c1ccc(N(C)Cc2ccc3nc(N)nc(N)c3n2)cc1,,TYPE 1,IC50,Dihydrofolate reductase,,,Cryptosporidium parvum,1.3 µM
Cc1ccccc1S(=O)(=O)Nc1cc(-c2cc(NS(=O)(=O)c3ccccc3C)c(C(=O)O)s2)sc1C(=O)O,,,IC50,NS3 ATPase,,,Hepatitis C virus,<5 µM
Cc1cccc(-c2cncc(N3CCN(c4ccccc4F)CC3)n2)c1C,,,inhibition,UL97 kinase,,10 µM,Cytomegalovirus,>15%
Cc1ccccc1S(=O)(=O)Nc1cc(-c2cccnc2)sc1C(=O)O,,,IC50,NS3 ATPase,,,Hepatitis C virus,<5 µM
COc1cccc(Oc2ccc(-c3cnc4c(-c5nn[nH]n5)cnn4c3C3CCCCC3)cc2)c1,,,IC50,RNA-dependent RNA polymerase,,,Hepatitis C virus,<1 µM
Cc1cc(N2C(=O)C(=Cc3cc(C(F)(F)F)ccc3Cl)SC2=S)ccc1C(=O)O,,,IC50,NS5 polymerase,,,Bovine viral diarrhea virus,≤1 µM
COc1cccc(-c2cncc(N3CCN(c4ccc(Cl)cc4)CC3)n2)c1,,,inhibition,UL97 kinase,,1 µM,Cytomegalovirus,<50%
O=C1c2c(O)c(=O)c(-c3ccccn3)cn2CCN1Cc1ccc(Cl)c(Cl)c1,ELISA,,IC50,Integrase,,,HIV-1,<0.01 µM
Cc1cc(C)cc(-c2cncc(N3CCN(c4ccc(F)cc4)CC3)n2)c1,,,IC50,UL97 kinase,,,Cytomegalovirus,<100 µM
CC(C)CC(=O)Nc1cnn2c(C3CCCCC3)c(-c3ccc(OCc4ccccc4)cc3)cnc12,,,IC50,RNA-dependent RNA polymerase,,,Hepatitis C virus,>10 µM
OCc1ccc(-c2cncc(N3CCN(c4ccc(F)cc4F)CC3)n2)cc1,,,inhibition,UL97 kinase,,10 µM,Cytomegalovirus,>15%
Nc1nc(N)c2nc(Cc3ccc4ccccc4c3)c(Cc3ccc4ccccc4c3)nc2n1,,TYPE 1,IC50,Dihydrofolate reductase,,,Cryptosporidium parvum,>10 µM
CCOc1ccc(-c2cncc(N3CCN(c4ccccc4OC)CC3)n2)cc1,,,IC50,UL97 kinase,,,Cytomegalovirus,<100 µM
COC(=O)c1cc2nc(-c3ccccc3)cc(-c3ccccc3)n2n1,,,IC50,RNA-dependent RNA polymerase,,,Hepatitis C virus,>10 µM

A second listing of 4 rows from above:

| compound | method | strain | read-out | target | mutations | dose | agent | result |
|---|---|---|---|---|---|---|---|---|
| Cc1ccccc1C(=O)Nc1cc(Cc2cccc(C#N)c2)sc1C(=O)O |  |  | IC50 | NS3 ATPase |  |  | Hepatitis C virus | >20 µM |
| CC(C)(C)C(O)c1cc(=O)c(O)c2n1CCN(Cc1ccc(Cl)c(Cl)c1)C2=O | ELISA |  | IC50 | Integrase |  |  | HIV-1 | 0.01–0.1 µM |
| Nc1nc(N)c2nc(Cc3ccc4ccccc4c3)c(Cc3ccc4ccccc4c3)nc2n1 |  | TYPE 1 | IC50 | Dihydrofolate reductase |  |  | Cryptosporidium parvum | >10 µM |
| O=C1NC(=S)SC1=Cc1ccc(-c2ccc(Cl)c(Cl)c2)s1 |  |  | IC50 | NS5 polymerase |  |  | Bovine viral diarrhea virus | ≤1 µM |